Human monoclonal antibodies against the spike receptor-binding domain (heavy:light variable regions). IC50 against pseudoviruses bearing the spike of naturally observed variants; lower = stronger; >10 µg/ml means not reached at the top dose. No active / inactive call. The stated detection limit is 0.0005 µg/ml; values near or below 0.001 µg/ml lie at the floor of the assay.
Assays:
Test in all cases: pseudovirus neutralization IC50; higher = weaker neutralization
[1] = target: SARS-CoV-2 Omicron BA.1 spike pseudovirus
Experimental: (§1)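 Single-round VSV luciferase pseudovirus mixed with antibody dilutions for 1 h and put on Huh-7 cells for about a day; IC50 from the dose curve.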

[2] = target: SARS-CoV-2 Omicron BA.2 spike pseudovirus
Experimental: as §1

[3] = target: SARS-CoV-2 Omicron BA.2.75 spike pseudovirus
Experimental: as §1

[4] = target: SARS-CoV-2 Omicron BA.5 spike pseudovirus
Experimental: as §1

[5] = target: SARS-CoV-2 Omicron BQ.1.1 spike pseudovirus
Experimental: as §1

[6] = target: SARS-CoV-2 Omicron XBB spike pseudovirus
Experimental: as §1

[7] = target: SARS-CoV-2 early D614G spike pseudovirus
Experimental: as §1

Binder	pseudovirus neutralization IC50 [1] [mg/L]	pseudovirus neutralization IC50 [2] [mg/L]	pseudovirus neutralization IC50 [3] [mg/L]	pseudovirus neutralization IC50 [4] [mg/L]	pseudovirus neutralization IC50 [5] [mg/L]	pseudovirus neutralization IC50 [6] [mg/L]	pseudovirus neutralization IC50 [7] [mg/L]
BD55-5844 (protein) chain 1: QLQLQESGPGLVKPSETLPLTCTVSGASISTGGGHWGWIRQPPGKGLEWIGSIYNSGTTYYNPSLKGRVTISVDTSKNQFSLKLSSVTAADTAVYFCARTAWFGELDDYWGQGTLVTVSS chain 2: QSVLTQPPSASGTPGQRVTISCSGSSSNIGTNYVYWYQQLPGTAPKLLIYGNNQRPSGVPDRFSGSKSGTSASLAISGLRSEDEADYYCAAWDDSLKVVFGGGTKLTVL	> 10	> 10	> 10	> 10	> 10	> 10	> 10
BD55-5694 (protein) chain 1: EVQLEQSGAEVKKPGESLRISCKGSGNDFIMYWIGWVRQMPGKGLEWMGIIYPGDSETKYSPSFQGQVTISADKSIRTAYLQWSSLKASDTAIYYCAGAGGWLGDSFDIWGRGTTVIVSS chain 2: EIVLTQSPGTLSLSPGGRATLSCRASQSVTRNYLAWYQQRPGQAPRVLIYGASTRATGVPDRFSGSGSGTDFTLTISRLERGDFAVYYCQQYGSAPLTFGGGTKVEIK	> 10	> 10	> 10	> 10	> 10	> 10	> 10
BD55-5741 (protein) chain 1: QVQLVQSGAEVKKPGSSVKVSCRASGDTFSTYAISWVRQAPGQGLEWMGGIIPMHGVAHYAQKFQGRVTITADESTSTAYMELSSLRSEDTAVYYCARVGRSYFHDSSGYWPYFDYWGQGTPVTVSP chain 2: DIQMTQSPSSLSASVGDRVTITCRASQTISTYLNWYQQKPGKAPKLLIYAASSLQSGVPSKFSGSGSGTDFTLTISSLQPEDFATYYCQQTYSSPYTFGQGTNLEIK	0.274	0.103	0.148	> 10	> 10	> 10	0.00245
BD55-5748 (protein) chain 1: QVQLVQSGAEVKKPGSSVKVSCKASGGTFSSYSIIWVRQAPGQGLDWMGGIIPMFDTPTYAQKFQGRVTISADESTNTAYMELSSLRSEDTAVYYCATPHNFWTGYSSLLETHFDYWGQGTLVTVSS chain 2: QSALTQPPSASGSPGQSVTISCTGTNSDVGGYNYVSWYQQHPGKAPKLMIYEVTKRPSGVPDRFSGSKSANTASLTVSGLQAEDEADYYCSSYAGSNTLVFGGGTKLTVL	> 10	> 10	> 10	> 10	> 10	> 10	0.0994
BD55-5854 (protein) chain 1: QVQLVQSGAEVKKPGSSVKVSCKASGDTFSSYSINWVRQAPGQGPEWMGRIIPMFGIANYAQKFQGRVTITADKSTSTAYMELSSLRSEDTAVYYCATSTYYYDSSGYYPFDYWGQGTWVTVSS chain 2: DIQMTQSPPSLSASVGDRVTFTCRASQNISNYLHWYQQKPGKAPKLLLYVASSLQSGVPSRFSGRGSGTDFTLTISSLQPEDFATYYCQQSYSTPRTFGQGTKVEIK	> 10	> 10	> 10	> 10	> 10	> 10	0.0161
BD55-5728 (protein) chain 1: EVQLVQSGAEAKKPGESLKISCQGSGDNFNKYYIAWVRQMPGKGLEWMGFIYPGDSETRYSPSFEGQVTISADKSISTAFLQWRSLKASDTAMYYCARRFVGATVGDLFDYWGQGTLVTVSS chain 2: DIQMTQSPSSLSASMGDRVTITCRASESINRYLNWYQQRPGKAPKLLIFAASSLQSGVPSRFSGSGSGTDFTLTISSLQPEDFATYYCQQSYISFTFGGGTKVDMK	> 10	> 10	> 10	> 10	> 10	> 10	0.0783
BD55-5718 (protein) chain 1: QVQLVQSGSELKKPGTSVKVSCEASGYDFINFPIDWVRQAPGQGLEWMGWINTNTGHPTYAQGFTGRFVFSLDTSINTAYLHIGSLKAEDTAVYYCARDPNYGGEFDHWGQGTLVTVSS chain 2: DIVMTQSPATLSVSPGERATLSCRASYSFSSSLAWYQQKPGQAPRLLIFGVSTRATGIPARFSGSGSGTEFTLTISSLQSEDVAVYYCQQYYSWPLTFGGGTKVEIK	> 10	> 10	> 10	> 10	> 10	> 10	0.00497
BD-505 (protein) chain 1: EVQLVESGGGLIQPGGSLRLSCAASGFTVSSNYMNWVRQAPGKGLEWVSVIYSGGSTFYADSVKGRFTISRDNSKNTLYLQMNSLRAEDTAVYYCARDRVVYGMDVWGQGTTVTVSS chain 2: DIQMTQSPSSLSASVGDRVTITCQASQDIINYLNWYQQKPGKAPKLLIYGASNLETGVPSRFSGGGSGTDFTFTISSLQPEDIATYYCHQYDNLPPTFGQGTRLEIK	0.0159	0.0209	0.585	0.0156	0.441	0.0292	0.0147
BD55-5737 (protein) chain 1: QVQLVQSGAEVKKPGASVKLSCKASGYTFTNYHIHWVRQAPGQGLEWMGIINPSGGSTGYGQKFQGRVTMTRDTSTGTVYMELSSLRSDDTAVYYCARDFAFSRAYSGYDILDTSWFDPWGQGTLVTVSS chain 2: DIVMTQSPDSLAVSLGERATITCKSSQSVLYGSKNQNYLAWYQHKPGQPPKVLIYWASTRQSGVPNRFSGSGSGTEFTLTISSLQAEDVAVYYCQQYYSSPLTFGGGTKVEIK	> 10	> 10	> 10	> 10	> 10	> 10	0.0669
BD55-5765 (protein) chain 1: EVQLLESGGGLEQPGGSLRLSCAASGVTFGTNAMSWVRQAPGKGLEWVSTISYTGGSTYYADSVKGRVTISRDNSKKMLYLQMNSLRAEDTAVYYCACGSTWYGDWNFDLWGRGTLVTVSS chain 2: QSALTQPRSVSGSPGQSVTISCTGTSSDVGGYNYVSWYQQHPGKAPKLMIYDVSKRPSGVPDRFSGSKSGNTASLTISGLQAEDESNYYCCSYAGSYWVFGGGTKLTVL	0.00253	0.00589	0.258	0.0056	1.21	1.34	0.00157
BD55-1091 (protein) chain 1: QVQLQESGPGLVKPSNTLSLTCSVSGYSISSGYYWAWIRQPPGKRLEWIGSVFESGATYYNPSLKSRVTISVDTSKNQFSLNLRSVTAADTAVYYCAREVAGSGNNELDYWGRGTLVTVSS chain 2: EIVMTQSPATLSVSPGERATLSCRASQSVGDNLAWYQHKPGQAPRLLIYGASTRATGVPARFSGSGSGTEFTLTISRLQSEDFAVYYCQQYNLWGTFGQGTKVEIK	4.21	> 10	> 10	> 10	> 10	> 10	0.514
BD55-5697 (protein) chain 1: QLHLQESGPGLVKPSETLSLTCTVSGGSVTNSRNCWGWIRQPPGKGLEWIATIDYSGTTHYNPSLKSRVAISVDMSKSQFSLELSSVTAADTAVYYCARHVCQRSLYLLPLYFDYWGQGSVVTVSS chain 2: YELTQPPSVSLSPGQTARIACSGDALPSQYAYWYQQKPGQAPVLLIFKDTERPSGIPERFSGSISGTTATLTISGVQAEDEADYYCQSAAAGTTYMVFGGGTKLTVL	0.0134	0.168	0.238	0.47	> 10	> 10	0.00313
